Compound potency records, mixed from different reports. Data source: NIAID ChemDB in PubChem.

All rows: whole-cell or culture tests; agent: Rhinovirus; endpoint: inhibition

Blank or dashed fields: not listed here.

| smiles | cells | read by | strain or isolate | tested at | value |
|---|---|---|---|---|---|
| CCCCCCCCCCCCCCOc1ccc(C(C)=O)o1 | - | - | 17 serotypes | 1.75 µg/mL | 71% |
| Cc1cc(Cl)ccc1Cn1cnc2c(N(C)C)nc(C(F)(F)F)nc21 | M-HELA | plaque count | Serotype 3 | 8 µM | 29% |
| COc1cc(C(=O)Oc2c(-c3ccc(Cl)c(Cl)c3)oc3ccccc3c2=O)ccc1O | HeLa | plaque count | Serotype 14 | 6.25 µM | 36% |
| Cc1cc(CCCCCCCOc2ccc(C3=NCCO3)cc2)on1 | - | - | 100 serotypes | 1.5 µg/mL | 53% |
| CN(C)c1nc(C(F)(F)F)nc2c1ncn2Cc1ccccc1Cl | M-HELA | plaque count | Serotype 31 | 8 µM | 38% |
| FC(F)(F)c1cccc(C2CCN(c3ccc(Br)nn3)C2)c1 | - | - | 100 serotypes | 0.117 µg/mL | 53% |
| N#Cc1cc([N+](=O)[O-])ccc1Oc1ccc(Cl)c(Cl)c1 | VERO | plaque count | HANK | 0.25 µg/mL | 76.3% |
| COc1ccc(Cn2cnc3c(N(C)C)nc(C(F)(F)F)nc32)cc1C | M-HELA | plaque count | Serotype 29 | 8 µM | 27% |
| CC(=O)Oc1ccc(/C=C/C(=O)Oc2c(-c3ccc(Cl)cc3)oc3ccccc3c2=O)cc1OC(C)=O | HeLa | plaque count | Serotype 1B | 0.39 µM | 17% |
| Cc1cccc(C2=CCN(c3ccc(Br)nn3)CC2)c1 | - | - | 17 serotypes | 0.338 µg/mL | 53% |
| COc1cc(/C=C/C(=O)Oc2c(-c3ccc(Cl)c(Cl)c3)oc3ccccc3c2=O)ccc1OC(C)=O | HeLa | plaque count | Serotype 14 | 0.39 µM | 3% |
| Cc1ccccc1Cn1cnc2c(N(C)C)nc(C(F)(F)F)nc21 | M-HELA | plaque count | Serotype 8 | 8 µM | 44% |
| CC1(C)COC(c2ccc(OCCN3CCN(c4ccc(Cl)nn4)CC3)cc2)=N1 | - | - | 17 serotypes | 0.7 µg/mL | 18% |
| COc1cc(/C=C/C(=O)Oc2c(-c3ccc(Cl)c(Cl)c3)oc3ccccc3c2=O)ccc1O | HeLa | plaque count | Serotype 1B | 1.59 µM | 33% |
| Nc1c(S(=O)(=O)O)cc2cc(S(=O)(=O)O)cc(O)c2c1O | Human amnion AV3 cells | cytopathic effect | - | 5 µg/mL | 30% |
| COc1cc(C(=O)Oc2c(-c3ccc(Cl)c(Cl)c3)oc3ccccc3c2=O)cc(OC)c1O | HeLa | plaque count | Serotype 14 | 1.56 µM | 26% |
| O=C(O)Cc1csc(/N=C2\SC[C@@H]3Cc4ccccc4CN23)n1 | MRC-5 | cytopathic effect | Serotype 9 | 15 µg/mL | 80–100% |
| COc1cc(C(=O)Oc2c(-c3ccc(Cl)cc3)oc3ccccc3c2=O)cc(OC)c1O | HeLa | plaque count | Serotype 1B | 0.54 µM | inactive |
| CCOC(=O)c1csc(N2CCN(Cc3cc(C)ccc3C)CC2)n1 | - | - | 100 serotypes | 2.8 µg/mL | 53% |
| Fc1cccc(Cn2cnc3c(Nc4cccc(F)c4)nc(C(F)(F)F)nc32)c1 | M-HELA | plaque count | Serotype 30 | 5 µM | 17% |
| COc1cc(C(=O)Oc2c(-c3ccc(Cl)cc3)oc3ccccc3c2=O)cc(OC)c1OC(C)=O | HeLa | plaque count | Serotype 14 | 1.56 µM | 37% |
| Cc1ccc(Cn2cnc3c(N(C)C)nc(C(F)(F)F)nc32)cc1 | M-HELA | plaque count | TYPE 16 | 5 µM | 12% |

"inactive" is the filed call at that dose; no cut-off is given. Rows are shuffled and stem from different studies. Two numbers with a dash give a range or band. Inhibition is in % at the dose shown (toxicity tests: loss of growth or viability).